Laboratory results from patent publication US20250099474A1 (priority 2022, published 2025).

System: SARS-CoV-2
Test: Phase 2/3 study, Phase 2a Part: SARS-CoV-2 virus titer
Format: in vivo, human
Conditions: 750/250 mg group and 375/125 mg group

For `Cn1cnc(Cn2c(=O)[nH]/c(=N\c3cc4cn(C)nc4cc3Cl)n(Cc3cc(F)c(F)cc3F)c2=O)n1` [(6E)-6-[(6-chloro-2-methyl-2H-indazol-5-yl)imino]-3-[(1-methyl-1H-1,2,4-triazol-3-yl)methyl]-1-[(2,4,5-trifluorophenyl)methyl]-1,3,5-triazinane-2,4-dione], the “Reduction of time to the first negative SARS-CoV-2 virus titer of 50% of patients vs placebo” value was “about 2 days”.
